Data reported in PMC8523698, “Preclinical characterization of an intravenous coronavirus 3CL protease inhibitor for the potential treatment of COVID19” (Nature Communications, 2021).

Tested on: SARS-CoV-2 USA-WA1/2020
Test: Ad5-hACE2 SARS-CoV-2 mouse infection model
Assay type: in vivo, BALB/c mice
Conditions: 100 mg/kg S.C. BID from day 0; day 3

In the case of `COc1cccc2[nH]c(C(=O)N[C@@H](CC(C)C)C(=O)N[C@@H](C[C@@H]3CCNC3=O)C(=O)CO)cc12` [PF-00835231], the “reduction in lung viral titers” value is reported as “≈ 1.5 log10”.
